Data as given in PubChem BioAssay AID504761 (Drosophila RNAi Screening Center, 2011)
Screen: 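Insect host genes that dengue virus relies on to spread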 (primary screen). Cell system: D.Mel-2 cells from Drosophila. Reagent: long dsRNA against Drosophila genes. Challenge: infection with dengue virus type 2; dose and infection time not stated. Detection: 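Per well on two replicate plates, imaging gave the percent of cells positive for viral envelope protein, ranked by infection, and a nuclear count of cells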. Reading the numbers: infection score: higher = more virus-infected cells; cell count: higher = more cells in the well. Rule for the call: 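Low infection ranks in the two replicates (chance level up to 0.065) followed by a retest with a 1.5-fold or larger significant decrease, p below 0.05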. Meaning of the calls: active = confirmed: knock-down lowers infection; inactive = not picked or not confirmed.
In all, the deposit lists about 22,000 reagents; below is a random part of those that have a named target and a result. In the full data, 116 (0.52%) were called active. 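Calls depend on retest data that are not deposited; infection was ranked per plate without normalising between plates; the unit of the infection score is not given.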 Raw values are not corrected between plates. Further read-outs or replicates are left out here. The record does not give: the amount of reagent, the time to read-out.

target gene | dsRNA | infection score, replicate 1 | infection score, replicate 2 | cell count, replicate 1 | call
Trhn | DRSC08621 | 7.18 | 8.82 | 6216 | inactive
not | DRSC11378 | 10.2 | 7.26 | 6013 | inactive
CG9674 | DRSC11088 | 7.43 | 5.4 | 5986 | inactive
CG9674 | DRSC11089 | 2.83 | 1.65 | 5644 | inactive
CG42671 | DRSC09093 | 9.79 | 6.69 | 1205 | inactive
CG42671 | DRSC10321 | 4.37 | 2.04 | 5651 | inactive
CG42671 | DRSC29747 | 1.65 | 9.4 | 6735 | inactive
chrb | DRSC11335 | 20.9 | 21.1 | 5718 | inactive
chrb | DRSC25273 | 6.15 | 4.29 | 5868 | inactive
CG15734 | DRSC19701 | 9.59 | 8.42 | 6445 | inactive
CG3650 | DRSC04401 | 12.6 | 13.6 | 5268 | inactive
CG3650 | DRSC28976 | 5.38 | 17.3 | 5163 | inactive
CG4835 | DRSC10452 | 19.4 | 36 | 5240 | inactive
CG4835 | DRSC23696 | 9.2 | 8.4 | 5652 | inactive
Mis12 | DRSC10299 | 4.95 | 1.66 | 6177 | inactive
CG11231 (retired record) | DRSC17207 | 0.33 | 2.99 | 6084 | inactive
Pcf11 | DRSC23350 | 4.7 | 6.72 | 5133 | inactive
Mal-A2 | DRSC07460 | 2.14 | 6.17 | 6272 | inactive
unc79 | DRSC15746 | 1.32 | 10.5 | 5984 | inactive
unc79 | DRSC25495 | 4.96 | 1.78 | 6450 | inactive
CG9743 | DRSC16552 | 10.6 | 2.74 | 5252 | inactive
CG9743 | DRSC28943 | – | – | 376 | inactive
eEF1delta | DRSC02790 | 16 | 9.02 | 6631 | inactive
eEF1delta | DRSC26084 | 6.03 | 2.37 | 6366 | inactive
